Pooled drug test results. Numbers come from NIAID ChemDB, via PubChem.

Shared fields: cytotoxicity tests; cells: CEM; read-out: CC50

Lines come from different laboratories, so protocols vary. CCn is the concentration with n% toxicity to the cells. Blank or dashed fields: not listed here.

compound	read by	result
CC(C)c1c(Sc2ccccc2)n(COCCO)c(=O)[nH]c1=O	-	>100 µM
Cc1cc(NS(=O)(=O)c2ccc(Nc3c4ccccc4nc4c(C(=O)Nc5ccc(S(=O)(=O)N=C(N)N)cc5)cccc34)cc2)no1	-	>250 µM
NC12CC3CC(CC(C3)C1)C2	-	315 µM
CC(=O)COc1cc(NC(=S)OC(C)C)ccc1Cl	-	60.27 µM
O=C1c2ccc(O)cc2C(=O)N1C12CC3CC(CC(C3)C1)C2	-	12.4 µM
CCOCn1c(Sc2ccccc2)c(CC)c(=O)[nH]c1=O	-	77.4 µM
CC(C)(C)NC(=O)[C@@H]1CN(Cc2cccnc2)CCN1C[C@H](C[C@@H](Cc1ccccc1)C(=O)N[C@H]1c2ccccc2C[C@H]1O)OC(=O)NCCCCOc1ccc(C[C@H](N)C(=O)O)cc1	MTT	>100 µM
CC(C)CCCCCOP(=O)(COCCn1cnc2nc(N)nc(Cl)c21)OCCCCCC(C)C	-	>4 µg/mL
CC(C)c1c(Sc2ccccc2)n(COCc2ccccc2)c(=S)[nH]c1=O	-	>100 µM
CC(C)OC(=O)[C@H](C)NP(=O)(OC[C@H]1O[C@@H](n2cnc3c(N)ncnc32)C(F)(F)C1(F)F)Oc1ccccc1	-	14 µM
Cc1c(O)cccc1C(=O)N[C@@H](CSc1ccccc1)[C@@H](CN1C[C@H]2CCCC[C@H]2C[C@H]1C(=O)NC(C)(C)C)OC(=O)NCCCCOc1ccc(C[C@H](N)C(=O)O)cc1	MTT	>100 µM
Cc1ccc(N2C(=O)CCC2(CN)c2ccc(OCc3ccccc3)cc2)cc1	absorbance	33.7 µM
C=CCOc1cc(NC(=S)OC(C)C)ccc1Cl	-	15.4 µM
Cc1cn([C@H]2C[C@H](O)[C@@H](COC(=O)CCCCCCCCCCCN=[N+]=[N-])O2)c(=O)[nH]c1=O	-	>21 µM
Cc1cn([C@H]2C=C[C@@H](CO)O2)c(=O)[nH]c1=S	-	>430 µM
CCOC(=O)c1cc(NC(=S)OC(C)C)ccc1C	-	>355.4 µM
O=C(Nc1cccc(-c2nc3cc(C(=O)Nc4ccc(S(=O)(=O)O)c5cc(S(=O)(=O)O)cc(S(=O)(=O)O)c45)ccc3[nH]2)c1)Nc1cccc(-c2nc3cc(C(=O)Nc4ccc(S(=O)(=O)O)c5cc(S(=O)(=O)O)cc(S(=O)(=O)O)c45)ccc3[nH]2)c1	-	60.9 µM
Cc1ccccc1OC(=O)c1cc(NC(=S)OC(C)C)ccc1Cl	-	129 µM
Nc1ccn([C@@H]2C=C(F)[C@H](CO)O2)c(=O)n1	-	>100 µM
NC(=O)CNC(=O)c1ccccc1SSc1ccccc1C(=O)NCC(N)=O	-	22 µM
Cc1cn([C@H]2C=C(F)[C@@H](CO)O2)c(=O)[nH]c1=O	-	>100 µM
Cc1cn([C@H]2C[C@H](O)[C@@H](COC(=O)CCCCCCCCCCCBr)O2)c(=O)[nH]c1=O	-	>52 µM
CC(C)CCCCCOP(=O)(COCCn1cnc2c(N)ncnc21)OCCCCCC(C)C	-	>4 µg/mL
Nc1ccn([C@@H]2O[C@H](CO)C(F)(F)C2(F)F)c(=O)n1	-	>100 µM
CC(C)(C)NC(=O)[C@@H]1CN(Cc2cccnc2)CCN1C[C@H](C[C@@H](Cc1ccccc1)C(=O)N[C@H]1c2ccccc2C[C@H]1OC(=O)CCCCOc1ccc(C[C@H](NC(=O)OC(C)(C)C)C(=O)O)cc1)OC(=O)CCCCOc1ccc(C[C@H](NC(=O)OC(C)(C)C)C(=O)O)cc1	MTT	>100 µM
Cc1cccc(C)c1N1C(=O)c2ccc(Cl)cc2C1=O	-	111 µM
Nc1ncnc2c1ccn2CCOCP(=O)(O)O	-	>4 µg/mL
CNc1nc(Cl)nc2c1ncn2[C@H]1C[C@H](N=[N+]=[N-])[C@@H](CO)O1	MTS	>100 µM
Nc1nc(=O)n([C@H]2O[C@@H](CO)C=C2F)cc1F	-	>100 µM
CCCCOC(=S)Nc1ccc(Cl)c(C(=O)OC(C)C)c1	-	21.22 µM
O=C(NC12CC3CC(CC(C3)C1)C2)c1ccc([N+](=O)[O-])cc1	-	90.7 µM
Nc1nc(Cl)c2ncn([C@@H]3O[C@@H](CO)C=C3F)c2n1	-	28.2 µM
Nc1nc2c(nc(Br)n2CCOCP(=O)(O)O)c(=O)[nH]1	-	>0.16 µg/mL
O=C(O)CC[C@H](Cc1ccccc1)NC(=O)c1ccccc1SSc1ccccc1C(=O)N[C@H](CCC(=O)O)Cc1ccccc1	-	67 µM
CCOC(=O)[C@H](C)NP(=O)(OC[C@@H]1OC[C@H](n2cnc3c(N)nc(N)nc32)O1)Oc1ccccc1	-	>100 µM
Cc1ccc(N2C(=O)CCC2(C#N)c2ccccc2OCc2ccccc2)cc1	absorbance	16.1 µM
Nc1nc2c(ncn2[C@@H]2OC[C@H](/C=C/P(=O)(O)O)C23CC3)c(=O)[nH]1	-	>100 µM
CC(C)c1ccc(C2(CN)CCC(=O)N2c2ccccc2)cc1	absorbance	32.9 µM
CCCSC(=Nc1ccc(Cl)c(C(=O)OC(C)C)c1)OC(C)C	-	131 µM
Cc1ccc(N2C(=O)CCC2(C#N)c2ccc(OC(C)C)cc2)cc1	absorbance	17 µM
O=c1[nH]cnc2c1ncn2[C@@H]1O[C@@H](CO)C=C1F	-	>100 µM
C=CCOC(=S)Nc1ccc(Cl)c(C(=O)OC(C)C)c1	-	54.17 µM
O=C1CSC(c2c(F)cccc2Cl)N1Cc1cccs1	-	42.09 µM
Nc1nc2c(ncn2[C@@H]2C=C(F)[C@H](CO)O2)c(=O)[nH]1	-	>100 µM
Cc1cccc(C)c1N1C(=O)c2ccc(O)cc2C1=O	-	74 µM
Cc1cc(C)cc(Cc2c(C(C)C)c(=O)[nH]c(=O)n2COCCO)c1	-	>100 µM
O=c1ccn([C@H]2C=C(F)[C@@H](CO)O2)c(=O)[nH]1	-	>100 µM
NCCCC[C@H](NC(=O)c1ccccc1SSc1ccccc1C(=O)N[C@@H](CCCCN)C(=O)O)C(=O)O	-	>100 µM
Cn1cccc1CN1C(=O)CSC1c1c(F)cccc1F	-	161 µM
CCCCCCCCCCCCC(Br)C(=O)OC[C@H]1O[C@@H](n2cc(C)c(=O)[nH]c2=O)CC1O	-	18 µM
N#CC1(c2ccccc2)CCCN1C(=O)c1ccccc1Br	absorbance	>100 µM
Nc1ccn([C@H]2C=C(F)[C@@H](CO)O2)c(=O)n1	-	>100 µM
Cc1cccc(C)c1N1C(=O)c2ccc(C(=O)O)cc2C1=O	-	21 µM
Cc1c(OC(=O)CCCCOc2ccc(C[C@H](N)C(=O)O)cc2)cccc1C(=O)N[C@@H](CSc1ccccc1)[C@H](O)CN1C[C@H]2CCCC[C@H]2C[C@H]1C(=O)NC(C)(C)C	MTT	>100 µM
CCCCCCCCCCCCCCCC(=O)Nc1nc(N)nc2c1ncn2[C@H]1CO[C@@H](COP(=O)(N[C@@H](C)C(=O)OCC)Oc2ccccc2)O1	-	12 µM
CC(C)CCCCCOP(=O)(COCCn1cnc2c(=O)[nH]c(N)nc21)OCCCCCC(C)C	-	>4 µg/mL
C#CCNc1nc(N)nc2c1ncn2[C@H]1C[C@H](N=[N+]=[N-])[C@@H](CO)O1	MTS	>100 µM
Cc1cn([C@H]2O[C@@H](CO)C=C2F)c(=O)[nH]c1=O	-	>100 µM
CCCCCC(=O)Nc1nc(N)nc2c1ncn2[C@H]1CO[C@@H](COP(=O)(N[C@@H](C)C(=O)OCC)Oc2ccccc2)O1	-	89 µM
O=c1ccn([C@@H]2C=C(F)[C@H](CO)O2)c(=O)[nH]1	-	>100 µM
CC(C)OC(=O)c1cc(NC(=S)OC(C)(C)C)ccc1Cl	-	87.92 µM
Nc1ncnc2c1ncn2[C@@H]1OC[C@H](/C=C/P(=O)(O)O)C12CC2	-	>100 µM
Cc1ccc(NC(C#N)c2ccc(OCc3c(Cl)cccc3Cl)cc2)cc1	absorbance	16.8 µM
CC(C)OC(=O)[C@H](C)NP(=O)(OC[C@H]1O[C@@H](n2ccc(=O)[nH]c2=O)C(F)(F)C1(F)F)Oc1ccccc1	-	>100 µM
CCCCCCCCCCCC(=O)Nc1nc(N)nc2c1ncn2[C@H]1CO[C@@H](COP(=O)(N[C@@H](C)C(=O)OCC)Oc2ccccc2)O1	-	12 µM
Cc1cccc(C)c1NC(=O)c1ccc(N)cc1	-	486 µM
CCSCCCCCCCCCCC(=O)OC[C@H]1O[C@@H](n2cc(C)c(=O)[nH]c2=O)C[C@@H]1O	-	41 µM
Nc1nc(=O)n([C@@H]2C=C[C@H](CO)O2)cc1F	-	>100 µM
CCOC(=O)[C@H](C)NP(=O)(OC[C@@H]1OC[C@H](n2cnc3c(NC(C)=O)nc(N)nc32)O1)Oc1ccccc1	-	>100 µM
CCCOC(=O)c1cc(NC(=S)OC(C)C)ccc1Cl	-	34.83 µM
Cc1cc(=O)c2c(O)c3c(O)cc(O)c4c5c(O)cc(O)c6c(O)c7c(=O)cc(C)c8c1c2c(c34)c(c65)c78	-	>4 µg/mL
Cc1cccc(C)c1N1C(=O)c2ccc(N)cc2C1=O	-	61 µM
Cc1ccc(N2C(=O)CCC2(C#N)c2ccc(OCc3ccccc3)cc2)cc1	absorbance	30.3 µM
Nc1ncnc2c1ncn2[C@@H]1O[C@@H](CO)C=C1F	-	>100 µM
CCCC[C@H](NC(=O)c1ccccc1SSc1ccccc1C(=O)N[C@@H](CCCC)C(=O)OC(C)(C)C)C(=O)OC(C)(C)C	-	16 µM
CC(C)OC(=S)Nc1ccc(Cl)c(C(=O)OCC2CC2)c1	-	19.22 µM
Nc1ccc2c(c1)C(=O)N(C13CC4CC(CC(C4)C1)C3)C2=O	-	30.4 µM
CC(C)OC(=S)Nc1ccc(Cl)c(C(=O)OC(C(C)C)C(C)C)c1	-	20.43 µM
O=C(O)C[C@@H](NC(=O)c1ccccc1SSc1ccccc1C(=O)N[C@H](CC(=O)O)C1CCCCC1)C1CCCCC1	-	76 µM
Nc1ncnc2c1ncn2C1OC(CO)C=C1F	-	>100 µM
CC(C)(C)OC(=O)c1cc(NC(=S)OC(C)(C)C)ccc1Cl	-	122.1 µM

The first 11 rows once more:

CC(C)c1c(Sc2ccccc2)n(COCCO)c(=O)[nH]c1=O ; result: >100 µM
Cc1cc(NS(=O)(=O)c2ccc(Nc3c4ccccc4nc4c(C(=O)Nc5ccc(S(=O)(=O)N=C(N)N)cc5)cccc34)cc2)no1 ; result: >250 µM
NC12CC3CC(CC(C3)C1)C2 ; result: 315 µM
CC(=O)COc1cc(NC(=S)OC(C)C)ccc1Cl ; result: 60.27 µM
O=C1c2ccc(O)cc2C(=O)N1C12CC3CC(CC(C3)C1)C2 ; result: 12.4 µM
CCOCn1c(Sc2ccccc2)c(CC)c(=O)[nH]c1=O ; result: 77.4 µM
CC(C)(C)NC(=O)[C@@H]1CN(Cc2cccnc2)CCN1C[C@H](C[C@@H](Cc1ccccc1)C(=O)N[C@H]1c2ccccc2C[C@H]1O)OC(=O)NCCCCOc1ccc(C[C@H](N)C(=O)O)cc1 ; read by: MTT ; result: >100 µM
CC(C)CCCCCOP(=O)(COCCn1cnc2nc(N)nc(Cl)c21)OCCCCCC(C)C ; result: >4 µg/mL
CC(C)c1c(Sc2ccccc2)n(COCc2ccccc2)c(=S)[nH]c1=O ; result: >100 µM
CC(C)OC(=O)[C@H](C)NP(=O)(OC[C@H]1O[C@@H](n2cnc3c(N)ncnc32)C(F)(F)C1(F)F)Oc1ccccc1 ; result: 14 µM
Cc1c(O)cccc1C(=O)N[C@@H](CSc1ccccc1)[C@@H](CN1C[C@H]2CCCC[C@H]2C[C@H]1C(=O)NC(C)(C)C)OC(=O)NCCCCOc1ccc(C[C@H](N)C(=O)O)cc1 ; read by: MTT ; result: >100 µM